PubChem BioAssay AID624099 – ICCB-Longwood | 2012
Here is one part, drawn at random, of about 21,000 deposited reagents. In the full data, 497 (2.4%) were called active. 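Higher z means weaker E2 silencing; only reporter increases were scored, and knock-downs that hurt cell survival may mask genuine repressor factors.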 Unmarked entries are inactive. Reagents against one gene are numbered here.

Assay: 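Host factors E2 relies on to silence an HPV18 LCR reporter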 (primary screen)
Cell system: human C33A cervical carcinoma cells (HPV-negative) stably expressing BPV1 E2 and an HPV18 LCR luciferase reporter
Knock-down reagent: siRNA pool against human genes, 40 nM
Timing: 72 h
Measured: 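HPV18 LCR reporter light per well, converted to plate-wise z-scores that exclude control wells, and averaged over triplicate plates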
Direction: mean z-score and z-score: higher = stronger reporter signal, weaker E2 silencing
Rule for the call: 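Mean z ≥ 2 together with z ≥ 2 in two or more of the three replicates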

no.	Gene	pool no.	mean z-score	z-score, replicate A	z-score, replicate B	z-score, replicate C
1	RPL31P8	1	0.89	0.71	1.01	0.94
2	EML4	1	0.48	0.47	0.29	0.68
3	NR2F2	1	0.65	0.82	0.48	0.65
4	MAN2B1	1	-0.5	-0.46	-0.59	-0.44
5	DLL1	1	1.73	1.59	1.71	1.89
6	CDH19	1	-0.57	-1.01	-0.19	-0.51
7	ANKRD20A11P	1	-0.07	0.06	0.31	-0.59
8	ADH7	1	0.72	0.8	0.67	0.68
9	LDB1	1	-1.48	-1.36	-1.46	-1.61
10	SLC35E1	1	-0.11	-0.55	0.33	-0.1
11	KPNA7	1	0.27	0.67	-0.06	0.2
12	PADI3	1	0.65	0.73	0.77	0.45
13	ANO8	1	-0.85	-0.94	-1.1	-0.49
14	LOC389142 (retired record)	1	-0.1	-0.09	-0.35	0.14
15	LOC389892 (retired record)	1	-0.05	-0.41	0	0.26
16	ZNF528	1	-1.63	-1.6	-1.75	-1.53
17	EMX2	1	1.76	2.27	1.37	1.64
18	DPPA5P4	1	0.09	-0.03	0.15	0.15
19	SOCS6	1	0.19	0.02	0.35	0.21
20	RPS27AP5	1	-2.98	-2.7	-3.49	-2.73
21	GBE1	1	-0.64	-0.9	-0.77	-0.26
22	GREM2	1	1.73	1.94	1.73	1.52
23	LOC389702 (retired record)	1	0.25	0.46	0.12	0.17
24	METTL26	1	-0.28	-0.36	-0.18	-0.3
25	OSGIN1	1	0.25	-0.61	0.14	1.21
26	USP17L9P	1	-0.03	-0.24	0.2	-0.06
27	MOB4	1	-0.71	-0.66	-0.71	-0.76
28	COL4A6	1	1.83	1.79	1.67	2.02
29	CLCN6	1	-0.31	-0.21	-0.37	-0.35
30	METTL14	1	-1.22	-1.1	-1.49	-1.07
31	ACOT4	1	0.14	0.09	0.35	-0.02
32	YBX2	1	0.49	0.1	0.48	0.9
33	P2RX1	1	0.69	0.7	0.83	0.54
34	LINC01366	1	0.12	-0.05	0.3	0.1
35	GAB3	1	-0.82	-0.71	-1.05	-0.71
36	SFTPC	1	-0.82	-0.58	-0.76	-1.11
37	LINC03103	1	-1.31	-1.14	-1.41	-1.39
38	RING1	1	-0.85	-0.66	-1.1	-0.8
39	NXPE3	1	-1.3	-0.72	-1.69	-1.49
40	FICD	1	-0.15	0.12	-0.39	-0.19
41	LOC388806 (retired record)	1	-0.87	-0.63	-0.85	-1.13
42	FAM76B	1	1.63	1.13	1.18	2.56
43	NOB1	1	-0.2	-0.19	-0.17	-0.24
44	GLUL	1	-0.04	-0.07	-0.06	0.01
45	ZBED10P	1	1.46	1.6	1.53	1.24
46	BRPF1	1	-0.08	0	0	-0.25
47	EPB41L4B	1	-1.33	-1.18	-1.37	-1.43
48	FBXO7	1	0.49	0.4	0.37	0.7
49	MBLAC1	1	0.89	0.82	0.71	1.12
50	MBLAC1	2	0.93	1.4	0.56	0.83
51	FMO5	1	-1.7	-1.73	-1.71	-1.68
52	NSDHL	1	0.45	0.26	0.29	0.79
53	ZNF70	1	0.48	0.69	0.59	0.16
54	TRIP6	1	-0.22	-0.1	-0.42	-0.14
55	NME4	1	-0.35	-0.16	-0.71	-0.17
56	SPATS2	1	-0.68	-0.66	-0.63	-0.75
57	LILRP2	1	-0.8	-0.71	-0.93	-0.76

Look-ups from above:
For “z-score, replicate B”, ZNF70 has 0.59
Entry for COL4A6 under “z-score, replicate B”: 1.67
Entry of DPPA5P4 in “mean z-score”: 0.09
